What was measured:
[1] = target: T1, LdtMt2 (Mycobacterium tuberculosis, UniProt I6Y9J2); details: cited from earlier work
[2] = target: T1, LdtMt2; details: pH 8

Amino acid sequences for entries named in this document (tags omitted). Residues count along the entry.
UniProt I6Y9J2, 56-408 limits assumed: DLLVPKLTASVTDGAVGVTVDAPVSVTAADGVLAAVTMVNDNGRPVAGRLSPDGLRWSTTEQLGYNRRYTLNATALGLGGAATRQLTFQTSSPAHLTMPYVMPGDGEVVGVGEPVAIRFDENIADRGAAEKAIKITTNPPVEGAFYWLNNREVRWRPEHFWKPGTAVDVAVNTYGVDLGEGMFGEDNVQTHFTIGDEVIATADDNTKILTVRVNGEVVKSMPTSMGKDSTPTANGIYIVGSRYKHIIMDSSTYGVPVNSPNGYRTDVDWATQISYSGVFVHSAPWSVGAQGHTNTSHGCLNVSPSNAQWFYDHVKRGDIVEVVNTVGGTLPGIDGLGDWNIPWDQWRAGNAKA

Structure (SMILES) | Fluorogenic probe assay pIC50 (mean ± SD) [1] | Transpeptidase activity assay pIC50 (mean ± SD) [2]
NC(=O)C=CC(=O)Nc1ccc(Cl)cc1 | 6.4 ± 0.08 | 6.6 ± 0.1
N#Cn1c(-c2cnc(-c3cccs3)nc2)nc2ccccc21 | 7.3 ± 0.06 | 6.6 ± 0.3
O=C1C=CC(=O)N1c1ccccc1 | 7.2 ± 0.03 | 6.5 ± 0.2
O=c1c2cc(Cl)c(Cl)cc2sn1CCO | 8.0 ± 0.04 | 6.5 ± 0.2
